A mixed list of measured activities; the numbers were collected in NIAID ChemDB.

All rows: tests in culture; agent: Mycobacterium kansasii

An empty or dashed field is not shown.

structure | strain | setting | method | measure | value
COC(=O)c1cnccn1 | 235/80 | 14 d |  | MIC | >500 µM
O=C(Nc1ccc(C(F)(F)F)cc1)c1cc(Cl)ccc1OS(=O)(=O)c1ccccc1 | 6509/96 | 21 d |  | MIC | 125 µM
O=C(OCc1ccccc1)N1CCC[C@H]1c1cnc(-c2ccc([N+](=O)[O-])cc2)[nH]1 | My 6509/96 | 21 d |  | MIC | 62.5 µM
O=C(Nc1cccc(Cl)c1)c1ccc(Cl)cc1OS(=O)(=O)c1ccccc1 | 235/80 | 7 d |  | MIC | 16 µM
CC(C)C[C@H](NC(=O)OCc1ccccc1)c1cnc(-c2ccccc2)[nH]1 | My 6509/96 | 21 d |  | MIC | >250 µM
O=C(NNC(=O)c1ccncc1)Nc1ccc(Br)c(F)c1 | My 235/80 | 7 d | broth dilution | MIC100 | 125 µM
Cc1ccc2oc(=S)n(-c3ccccc3)c(=S)c2c1 | My 235/80 | 14 d |  | MIC | 2 µM
O=C(Oc1cc(Cl)ccc1C(=O)Nc1ccc(F)cc1)c1cnccn1 | 235/80 | 14 d |  | MIC | 4 µM
O=C(NNC(=O)c1ccncc1)Nc1ccc(Br)c(C(F)(F)F)c1 | My 235/80 | 14 d | broth dilution | MIC100 | >125 µM
C[C@@H](NC(=O)OCc1ccccc1)c1cnc(-c2ccccc2)[nH]1 | My 235/80 | 7 d |  | MIC | 125 µM
O=C(Oc1ccc(Cl)cc1C(=O)Nc1ccc(Br)cc1)c1cnccn1 | 6509/96 | 7 d |  | MIC | 2 µM
COc1ccc(NC(=O)NNC(=O)c2ccncc2)cc1 | My 235/80 | 7 d | broth dilution | MIC100 | >125 µM
Cc1ccc(-n2c(=O)oc3ccc(Br)cc3c2=S)cc1 | My 235/80 | 21 d |  | MIC | 4 µM
Fc1cc(Nc2nnc(-c3ccncc3)o2)ccc1Br | My 235/80 | 21 d | broth dilution | MIC100 | >125 µM
O=C(Nc1cccc(C(F)(F)F)c1)c1ccc(Cl)cc1OS(=O)(=O)c1ccccc1 | 235/80 | 14 d |  | MIC | 125 µM
C[C@H](NC(=O)OCc1ccccc1)c1cnc(-c2ccccc2)[nH]1 | My 6509/96 | 7 d |  | MIC | 125 µM
O=C(Oc1ccc(Cl)cc1C(=O)Nc1ccc(Cl)cc1)c1cnccn1 | 235/80 | 14 d |  | MIC | 2 µM
O=C(Nc1cccc(Br)c1)c1ccc(Cl)cc1OS(=O)(=O)c1ccccc1 | 6509/96 | 14 d |  | MIC | 125 µM
O=C(Oc1cc(Cl)ccc1C(=O)Nc1cccc(Cl)c1)c1cnccn1 | 235/80 | 7 d |  | MIC | 2 µM
O=C(Nc1ccc(Br)cc1)c1cc(Cl)ccc1OS(=O)(=O)c1ccccc1 | 235/80 | 14 d |  | MIC | 8 µM
O=C(NC1CCCCC1)N(C(=O)c1cnccn1)C1CCCCC1 | 235/80 | 21 d |  | MIC | >500 µM
Fc1ccc(-n2c(=S)oc3ccc(Cl)cc3c2=S)cc1 | 6509/96 | 14 d |  | MIC | 8 µM
O=C(Nc1cccc(C(F)(F)F)c1)c1cc(Cl)ccc1OS(=O)(=O)c1ccccc1 | 235/80 | 14 d |  | MIC | 8 µM
O=C(Oc1ccc(Cl)cc1C(=O)Nc1ccc(C(F)(F)F)cc1)c1cnccn1 | 235/80 | 14 d |  | MIC | 2 µM
O=c1oc2ccc(Br)cc2c(=S)n1-c1ccc(Br)cc1 | 6509/96 | 21 d |  | MIC | 4 µM
O=C(N[C@@H](Cc1ccccc1)c1cnc(-c2ccccc2)[nH]1)OCc1ccccc1 | My 235/80 | 21 d |  | MIC | >500 µM
COc1ccc2oc(=S)n(-c3ccc(Cl)cc3)c(=S)c2c1 | 6509/96 | 14 d |  | MIC | 16 µM
O=C(Nc1ccc(Cl)c(Cl)c1)c1ccc(Cl)cc1OS(=O)(=O)c1ccccc1 | 235/80 | 7 d |  | MIC | 4 µM
O=C(Oc1cc(Cl)ccc1C(=O)Nc1ccc(C(F)(F)F)cc1)c1cnccn1 | 235/80 | 7 d |  | MIC | 1 µM
CC[C@@H](C)[C@H](NC(=O)OCc1ccccc1)c1cnc(-c2ccc([N+](=O)[O-])cc2)[nH]1 | My 235/80 | 21 d |  | MIC | 62.5 µM

3 of the rows above, restated:

| structure | strain | setting | method | measure | value |
|---|---|---|---|---|---|
| O=C(Oc1cc(Cl)ccc1C(=O)Nc1ccc(C(F)(F)F)cc1)c1cnccn1 | 235/80 | 7 d |  | MIC | 1 µM |
| Cc1ccc2oc(=S)n(-c3ccccc3)c(=S)c2c1 | My 235/80 | 14 d |  | MIC | 2 µM |
| COc1ccc(NC(=O)NNC(=O)c2ccncc2)cc1 | My 235/80 | 7 d | broth dilution | MIC100 | >125 µM |

MIC50, MIC90 and the like: level of inhibition, or share of isolates inhibited. Conditions beyond the fields shown may differ between rows.